Reference: the supplement of paper PMC9931576
Human monoclonal antibodies against the spike receptor-binding domain (heavy:light variable regions). IC50 against pseudoviruses bearing the spike of naturally observed variants; lower = stronger; >10 µg/ml means not reached at the top dose. No active / inactive call. The stated detection limit is 0.0005 µg/ml; values near or below 0.001 µg/ml lie at the floor of the assay.

B1: COVOX-75 (protein)
chain 1: QVQLVESGGGVVQPGRSLRLSCAASGFTFNNYPLHWVRQAPGKGPEWVAVISQDGGNKYYVDSVKGRFTISRDNSKNTLYLQMNNLRAEDTALYYCARDVVVVVAARNHYYNGMDVWGQGTTVTVSS
chain 2: DIQLTQSPSSVSASVGDRVTITCRASQGISSWLAWYQQKPGKAPKLLIYAVSSLQSGVPSRFSGSGSGTDFTLTISSLQPEDFATYYCQQAKSFPFTFGPGTKVEIK
B2: BD56-1915 (protein)
chain 1: QVQLEQSGAEVKKPGSSVKVSCKASGDTFSRHAITWVRQAPGQGLEWMGRIIPMFDIPNYAQKFQGRVTLTADKSTSTVYMEVSSLRSDDTAVYYCATSAYQYGSSGYYIDHWGQGTLVTVSS
chain 2: EIVLTQSPGTLSLSPGERATLFCRASQSVSSSYLAWYQQKAGQAPRLLIYGASNRAAGIPDRFGGSGSGTDFTLTISRLEPEDFAVYYCHQYHSSPRTFGQGTKVEVK
B3: COVOX-45 (protein)
chain 1: QVQLVESGGGVVQPGRSLRLSCAASGFTFSTYAMHWVRQAPGKGLEWVAVLSYDGSNKYYADSVKGRFTISRDNSKNTLYLQMNSLRAEDTAVYYCAKGGSYAYYYYMDVWGKGTTVTVSS
chain 2: not shown
B4: BD56-1907 (protein)
chain 1: QVQLVQSGGEVKKPGSSVKVSCKASGGASSSYAISWVRQAPGQSFEWMGRIIPVLNLTNYAQNFQGRVTITADKSTSTTYMELSSLRSEDTAIYFCARVGFGNVWYLFDFWGQGTLVAVSS
chain 2: EIVMTQSPATLSVSPGERATLSCRASQSVSTNLAWYQQKPGQAPRLLIYGASTRATGISARFSGSGSGTDFTLTISSLQSEDFALYYCQQYDNWYTFGQGTKLEIK
B5: BD56-1891 (protein)
chain 1: QVQLVQSGAEVKRPGASVKVSCKASGYAFTGYYIHWVRQAPGQGLEWMGWVDPNSGGINYAQKFRDRVTMTTDTSITTAYMDLSRLTSDDTAVYYCARDTGSYYSDAEYFQHWGQGTLVTVSS
chain 2: DIQMTQSPSPLSASVGDRVTITCRASQPIDNDLNWYQQKPGKAPKLLLYSASNLESGVPSRFSGSGSGADFTLTITSLQPEDFATYYCQQSYTTPPYTFGPGTKLEIK
B6: BD56-1911 (protein)
chain 1: QVQLQESGPGLVKPSGTLSLTCVVSGGSIITTNWWSWVRQSPGKGLEWIGEIHHSGNTNYNPSLKSRVTISVDKSKNHFSLNLSSVTAADTAIFYCARDRGGVGDGFDIWGQGTMVTVSS
chain 2: QSALTQPASVSGSPGQSITISCTGTSSDVGGYNYVSWYQQHPGKAPKLIIYDVRDRPSGISNRFSGSKSGNTASLTISGLQPEDEADYYCNSFTSSSTRVFGTGTKVTVL
B7: BD56-1895 (protein)
chain 1: EVQLLESGGGLVQPGGSLRISCAASGFTFRDNAMTWVRQAPGKGLEWVSSVSYRGSDTYYADSVKGRFTISRDNSNNTLYLQMNSLRVDDTAVYFCAAGRVTADWYFDLWGRGTLVTVSS
chain 2: QSALTQPRSVSGSPGQSVTISCTGTSSDVGAYNYVSWYQQHPGKAPKIMIYDVTKRPSGVPDRFSGSKSGNTASLTISGLQAEDEADYFCCSYAGTWVFGGGTKVTVL
B8: BD56-1883 (protein)
chain 1: QVQLVQSGAEVKKPGSSVKVSCKASEDTFNSYTINWVRQAPGQALEWMGRVIPLLAMTNYAQKFQGRLTITADKSTSTAYMELSSLRSEDTAMYFCARARAPFYASGYNGALNYFDPWGQGTLVTVSS
chain 2: EIVLTQSPGTLSLSPGERATLSCRASQSVTSIYLAWYQQKPGQAPRLLIYGASSRATGIPDRFSGSGSVTDFTLTISRLEPEDFAVYYCQQYHSSPFTFGQGTKLEIK
B9: BD56-1872 (protein)
chain 1: QVQLVQSGPEVKKPGTSVKVSCKASGFTFSLSSVQWVRQARGQRLEWIGWIAVGNGNTKNAQKFQARVTFTSDMSTSTAYMELSSLRSDDTAVYYCAAPQCNRTRCYDGFNIWGQGTMVTVSS
chain 2: EIVLTQSPGTLSLSPGERATLSCRASQSVSSDYFAWYQQKPGQAPRLLIYAASTRATGIPDRFSGRGSGTDFTLTISRLEPEDFAVYHCQQYGNSPTWTFGQGTKVEIK
B10: BD56-1876 (protein)
chain 1: EVQLVESGGGLVQAGGSLRLSCGASGFIVRNNYMNWVRQAPGKGLEWVSSIYSGGTIHSADSVKGRFTISRDDSKNTVYLQMNNLRAADTAHYYCARGGEHYDSAGYPMYQTGAFDVWGQGTMVTVSS
chain 2: QSALTQPPSASGSPGQSVTISCTGTSSDVGGHNYVSWYQQHPGKAPKLIIFEVSKRPSGVPDRFSGSKSGNTASLTVSGLQSEDEADYHCSSYAGSNNFVFGTGTKVTVL
B11: BD56-1921 (protein)
chain 1: QVHLQESGPGLVKPSETLSLTCAVAGDSISSNNWWIWVRQPPGKGLEWIGEIFHTGGSQYNPSLKSRVTISVDKSKSQFSLRLNSVTAADTAIYYCAKGLGMVDSWGQGTLVTVSS
chain 2: DIQMTQSPSSLSASVGDRVTITCRASQGISNSLAWYQQIPGKAPKLLLYSASTLESGVPSRFSGSGSGTDFTLSISSLQPADFATYYCQQYYSSPRTFGQGTKVEIK
B12: BD56-1919 (protein)
chain 1: DVQLVESGGGLVQPGGSLKLSCAASGFTFSGSAMHWVRQASGKGLEWVGRIRSILSSYETAYSASLKGRFTISRDDSKNTAYLQLNSLKTEDTAVYYCSMSGYSGYDELDIWGQGTLVTVSS
chain 2: DIQMTQSPSSLSASVGDRVTITCRAGQSITSYLNWYQQKPGKAPKLLIYAASSLQSGVPSRFSGSGSGTDFTLTISSLQPEDFATYYCQQSHSTPFTFGPGTKVDIK
B13: BD56-1922 (protein)
chain 1: QVHLVESGGGVVQPGGSLRLSCVASGFDFNTYGMHWVRQAPGKGLEWVAVIWFDGKNRNYGEFVKGRFAISRDNAKNTLYLQMNRLRAEDTAVYYCAKDRAHFYGSGSYFDADYYGMDVWGQGTTVTVSS
chain 2: DIQMTQSPSSLSASVGDSVTILCRASQAINNFLAWFQQKPGKAPRSLIYSASILQSGVPSTFSGSGSGTDFTLNISSLQPDDSAIYYCQQYKAYPLTFGPGTKVEIK

Target: SARS-CoV-2 Omicron BA.1 spike pseudovirus
Assay: pseudovirus neutralization IC50; higher = weaker neutralization
Procedure: (§1)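 Single-round VSV luciferase pseudovirus mixed with antibody dilutions for 1 h and put on Huh-7 cells for about a day; IC50 from the dose curve.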

Binder	pseudovirus neutralization IC50 [µg/mL]
B1	> 10
B2	0.0781
B3	> 10
B4	0.00492
B5	0.936
B6	> 10
B7	0.289
B8	0.0682
B9	0.0013
B10	0.00072
B11	0.00452
B12	> 10
B13	0.0541

Target: SARS-CoV-2 Omicron BA.2 spike pseudovirus
Assay: as above
Procedure: as §1

Binder	pseudovirus neutralization IC50 [µg/mL]
B1	> 10
B2	0.0978
B3	> 10
B4	0.00567
B5	0.0275
B6	0.0239
B7	0.00287
B8	0.0835
B9	0.000977
B10	0.000535
B11	0.00271
B12	> 10
B13	0.0375

Target: SARS-CoV-2 Omicron BA.2.75 spike pseudovirus
Assay: as above
Procedure: as §1

Binder	pseudovirus neutralization IC50 [µg/mL]
B1	> 10
B2	0.0232
B3	> 10
B4	0.183
B5	1.33
B6	1.94
B7	0.194
B8	0.00928
B9	0.00277
B10	0.00864
B11	0.00364
B12	> 10
B13	0.0255

Target: SARS-CoV-2 Omicron BA.5 spike pseudovirus
Assay: as above
Procedure: as §1

Binder	pseudovirus neutralization IC50 [µg/mL]
B1	> 10
B2	> 10
B3	> 10
B4	> 10
B5	0.0451
B6	0.0227
B7	0.00242
B8	> 10
B9	0.45
B10	4.19
B11	0.00815
B12	> 10
B13	0.478

Target: SARS-CoV-2 Omicron BQ.1.1 spike pseudovirus
Assay: as above
Procedure: as §1

Binder	pseudovirus neutralization IC50 [µg/mL]
B1	> 10
B2	> 10
B3	> 10
B4	> 10
B5	> 10
B6	> 10
B7	> 10
B8	> 10
B9	> 10
B10	> 10
B11	0.051
B12	> 10

Target: SARS-CoV-2 Omicron XBB spike pseudovirus
Assay: as above
Procedure: as §1

Binder	pseudovirus neutralization IC50 [µg/mL]
B1	> 10
B2	> 10
B3	> 10
B4	> 10
B5	> 10
B6	> 10
B7	> 10
B8	> 10
B9	> 10
B10	> 10
B11	0.383
B12	> 10

Target: SARS-CoV-2 early D614G spike pseudovirus
Assay: as above
Procedure: as §1

Binder	pseudovirus neutralization IC50 [µg/mL]
B1	0.027
B2	0.00194
B3	> 10
B4	0.00307
B5	0.0147
B6	0.0111
B7	0.0596
B8	0.00262
B9	0.00141
B10	0.000682
B11	0.00448
B12	0.153
B13	0.000329
